Compound potency records, mixed from different reports. Data source: NIAID ChemDB in PubChem.

Shared fields: cytotoxicity tests; cells: Huh7; read-out: CC50

An empty or dashed field is not shown. CCn is the concentration with n% toxicity to the cells. Lines come from different laboratories, so protocols vary. a–b is a range or a potency band.

structure | method | value
C=C1C(=O)O[C@@H]2[C@H]1CC[C@H](COC(=O)CC(C)C)[C@]1(O)CCC(=O)[C@@]21C |  | >2 µM
Nc1ccc(Oc2ccc(/C=C(\NC(=O)CCC3CCCC3)C(=O)O)cc2)c(C(F)(F)F)c1 |  | >100 µM
CN(C)c1cccc2cccc(Nc3s[nH]c(=O)c3C#N)c12 |  | >50 µM
COc1ccc2c(c1)[C@@H]1C[C@]1(C(=O)N1[C@@H]3CC[C@H]1CN(C)C3)Cn1c-2c(C2CCCCC2)c2ccc(C(=O)NS(=O)(=O)N(C)C)cc21 | resazurin | 20 µM
Nc1nc(=O)n2c3c1nnn3C[C@H]1OC2[C@H](O)[C@@H]1O |  | 11 µM
CCOc1nc(N)nc2ccc(-c3ccc(C(=O)NCCN(C)C)cc3)nc12 |  | 10–20 µM
COc1cc(Cc2cnc(/N=C3\C(=O)N(CN4CCN(c5ccccn5)CC4)c4ccc(Br)cc43)nc2N)cc(OC)c1OC |  | >50 µg/mL
Nc1nc(O[C@H]2CCOC2)c2nc(-c3ccc(C(=O)NCC(F)(F)F)cc3)ccc2n1 |  | >20 µM
CCCN1N=C(N)c2cn(C3(C)O[C@H](CO)[C@@H](O)[C@H]3O)c3ncnc1c23 |  | >300 µM
O=C(O[C@@H]1Cc2c(O)cc(O)cc2O[C@@H]1c1cc(O)c(O)c(O)c1)c1ccc(F)c(F)c1 | MTS | >1000 µM
Cc1nc(N)c2ncn([C@H]3O[C@@H](CO)[C@H](O)[C@@H]3O)c2n1 | MTT | >100 µM
C[C@@]1(O)[C@H](O)[C@@H](CO)O[C@H]1c1ccc2c(N)ncnn12 | MTT | >100 µM
CC1CCC(C(=O)N(c2cc(-c3ccccc3)sc2C(=O)O)C(C)C)C(O)C1 |  | 131 µM
CCOC(=O)C1(NP(=O)(OC[C@H]2O[C@@H](c3cnc4c(=O)[nH]c(N)nn34)[C@](C)(O)[C@@H]2O)Oc2cccc3ccccc23)CCC1 | MTT | >100 µM
CCCc1nc(N)nc2ccc(-c3ccc(NC(C)=O)cc3)nc12 |  | >20 µM
C[C@@]1(O)[C@H](O)[C@@H](CO)O[C@H]1c1cnc2c(N)ncnn12 | MTT | 34 µM
COc1ccccc1N1CCN(CN2C(=O)/C(=N\c3ncc(Cc4cc(OC)c(OC)c(OC)c4)c(N)n3)c3cc(Br)ccc32)CC1 |  | >50 µg/mL
CCc1nc(N)nc2ccc(-c3ccc(F)cc3)nc12 |  | <10 µM
CCC[C@H](NC(=O)[C@@H]1[C@H]2CCC[C@H]2CN1C(=O)[C@@H](NC(=O)[C@@H](NC(=O)c1cnccn1)C1CCCCC1)C(C)(C)C)C(=O)C(=O)NC1CC1 |  | >100 µM
O=c1ccc2nnn3c2n1[C@@H]1O[C@H](C3)[C@@H](O)[C@H]1O |  | 30.6 µM
CCc1nc(N)nc2ccc(-c3ccc(N4CCCC4=O)cc3)nc12 |  | >20 µM
CCn1cc(C(=O)O)c(=O)c2cc(F)c(N3CCN(CN4C(=O)/C(=N\c5ncc(Cc6cc(OC)c(OC)c(OC)c6)c(N)n5)c5cc(Br)ccc54)C(C)C3)c(F)c21 |  | >50 µg/mL
CCOc1nc(N)nc2ccc(-c3cccc(NS(=O)(=O)C4CC4)c3)nc12 |  | >20 µM
Nc1nc(N2CCOCC2)c2cc(-c3ccc(F)cc3)ccc2n1 |  | <10 µM
CN(C)c1nc(=O)n2c3c1nnn3C[C@H]1OC2[C@H](O)[C@@H]1O |  | >100 µM
N#Cc1c(NCC2CCCCC2)s[nH]c1=O |  | >50 µM
CCc1nc(N)nc2ccc(-c3ccc(N)cc3)nc12 |  | <10 µM
COc1cc(Cc2cnc(/N=C3\C(=O)N(CN4CCN(c5ccccc5)CC4)c4ccc(Br)cc43)nc2N)cc(OC)c1OC |  | >50 µg/mL
O=c1[nH]c(=S)c2nnn3c2n1C1O[C@H](C3)[C@@H](O)[C@H]1O |  | 32 µM
CCOc1nc(N)nc2ccc(-c3ccc(NC(=O)OC)cc3)nc12 |  | >20 µM
N#Cc1cccc(Nc2s[nH]c(=O)c2C#N)c1 |  | >50 µM
C[C@@]1(O)[C@H](O)[C@@H](CO)O[C@H]1n1ccc(=O)[nH]c1=O |  | >1000 µM
Nc1nc(CCC2OCCCO2)c2nc(-c3ccc(F)cc3)ccc2n1 |  | >20 µM
CCOc1nc(N)nc2ccc(-c3ccc(Nc4nccs4)cc3)nc12 |  | 10–20 µM
Nc1ccn([C@@H]2C[C@H](CO)[C@@H](O)C23CC3)c(=O)n1 | XTT | 40.6 µM
COc1cc(Cc2cnc(/N=C3\C(=O)N(CN4CCN(c5cccc(C(F)(F)F)c5)CC4)c4ccc(Br)cc43)nc2N)cc(OC)c1OC |  | >50 µg/mL
Fc1ccc(-c2ccc3ncnc(N4CCOCC4)c3c2)cc1 |  | >20 µM
COc1cc(Cc2cnc(/N=C3\C(=O)N(CN4CCN(c5c(F)cc6c(=O)c(C(=O)O)cn(C7CC7)c6c5OC)CC4C)c4ccc(Br)cc43)nc2N)cc(OC)c1OC |  | >50 µg/mL
N#Cc1c(Nc2ccccc2C(F)(F)F)s[nH]c1=O |  | >50 µM
Nc1ncnc2c1cnn2[C@@H]1C=C(CO)[C@@H](O)[C@H]1O | tetrazolium | >100 µM
COc1cc(Cc2cnc(/N=C3\C(=O)N(CN4CCCC4)c4ccc(Br)cc43)nc2N)cc(OC)c1OC |  | >50 µg/mL
CCCc1nc(N)nc2ccc(-c3ccc(F)cc3)nc12 |  | >20 µM
CCOc1nc(N)nc2ccc(-c3ccc(C(=O)Nc4ccccc4)cc3)nc12 |  | >20 µM
CC1(n2cc3c4c(ncnc42)N(CCO)N=C3N)O[C@H](CO)[C@@H](O)[C@H]1O |  | >300 µM
Nc1ncnc2c1ncn2[C@@H]1C[C@H](CO)[C@@H](CO)C12CC2 | XTT | >50 µM
COCCNc1nc(N)nc2ccc(-c3ccc(C(=O)NC4CC4)cc3)nc12 |  | >20 µM
O=C(Cn1nnc2cc3cccnc3c(Cl)c21)Cn1nnc2cc3cccnc3c(Cl)c21 | MTT | >100 µM
C=C1C(=O)O[C@@H]2[C@H]1CC[C@H](COC(=O)CC)[C@]1(O)CCC(=O)[C@@]21C |  | >2 µM
Nc1ncnc2c1c(I)nn2[C@@H]1C=C(CO)[C@@H](O)[C@H]1O | tetrazolium | 43.6 µM
CC(=O)Nc1ccc(-c2ccc3nc(N)nc(N4CCOCC4)c3c2)cc1 |  | 10–20 µM
N#Cc1c(Nc2ccc(Cl)c(C(F)(F)F)c2)s[nH]c1=O |  | >50 µM
COc1cccc(N2CCN(CN3C(=O)/C(=N\c4ncc(Cc5cc(OC)c(OC)c(OC)c5)c(N)n4)c4cc(Br)ccc43)CC2)c1 |  | >50 µg/mL
CCCCNC(=O)c1ccc(-c2ccc3nc(N)nc(OCC)c3n2)cc1 |  | >20 µM
N#Cc1c(Nc2ccc(C(=O)c3ccccc3)cc2)s[nH]c1=O |  | >50 µM

The first 7 rows once more:

| structure | method | value |
|---|---|---|
| C=C1C(=O)O[C@@H]2[C@H]1CC[C@H](COC(=O)CC(C)C)[C@]1(O)CCC(=O)[C@@]21C |  | >2 µM |
| Nc1ccc(Oc2ccc(/C=C(\NC(=O)CCC3CCCC3)C(=O)O)cc2)c(C(F)(F)F)c1 |  | >100 µM |
| CN(C)c1cccc2cccc(Nc3s[nH]c(=O)c3C#N)c12 |  | >50 µM |
| COc1ccc2c(c1)[C@@H]1C[C@]1(C(=O)N1[C@@H]3CC[C@H]1CN(C)C3)Cn1c-2c(C2CCCCC2)c2ccc(C(=O)NS(=O)(=O)N(C)C)cc21 | resazurin | 20 µM |
| Nc1nc(=O)n2c3c1nnn3C[C@H]1OC2[C@H](O)[C@@H]1O |  | 11 µM |
| CCOc1nc(N)nc2ccc(-c3ccc(C(=O)NCCN(C)C)cc3)nc12 |  | 10–20 µM |
| COc1cc(Cc2cnc(/N=C3\C(=O)N(CN4CCN(c5ccccn5)CC4)c4ccc(Br)cc43)nc2N)cc(OC)c1OC |  | >50 µg/mL |